Measured values from several laboratories, pooled; numbers as filed in NIAID ChemDB.

All rows: cytotoxicity tests; cell line: C8166; measure: CC50

Neighbouring rows are from separate reports. CCn: concentration that lowers growth or viability of the cells by n%. An empty or dashed field is not shown.

smiles	read by	value
COc1ccc(S(=O)(=O)Oc2ccc(N=Nc3ccc(N=Nc4ccc(OS(=O)(=O)c5ccc(OC)cc5)c5ncccc45)cc3)c3cccnc23)cc1	MTT	61.62 µg/mL
CC1(C)C=C2[C@H]3CC[C@@H]4[C@@]5(C)CCC(=O)C(C)(C)[C@@H]5CC[C@@]4(C)[C@]3(C)CC[C@@]2(C(=O)O)CC1	MTT	61.61 µM
CCN1c2ncc(CCc3ccccc3)cc2C(=O)N(C)c2ccc(Cl)nc21	-	>60 µM
COc1ccc(C(=O)O[C@@H](c2cc(O)c(OC)c(OC)c2)[C@H](C)C(C)O)cc1OC	MTT	107 µg/mL
C/C(=N\NC(=O)c1ccccc1)c1cn(S(=O)(=O)c2ccc(Cl)cc2)c2ccc([N+](=O)[O-])cc12	MTT	>200 µg/mL
CCN1c2ncc(CCc3cccc(NC(N)=O)c3)cc2C(=O)N(C)c2ccc(Cl)nc21	-	>60 µM
COc1cc2c(c(OC)c1OC)-c1c(cc(O)c(OC)c1O)C[C@@H](C)[C@@H](C)C2	MTT	>200 µg/mL
Cc1cc(C)cc(Sc2c(C(=O)NNCCO)[nH]c3ccc(Cl)cc23)c1	MTT	>100 µM
COc1cc(C(OC(=O)c2ccc3c(c2)OCO3)[C@H](C)C(C)O)cc(O)c1OC	MTT	186.5 µg/mL
O=C1C=C(c2ccc(O)cc2)OC2C=C(O)C=C(O)C12	MTT	378.2 µM
C=C(C)[C@@]12OC3(C)O[C@@H]1[C@@H]1[C@H](O)[C@@](C)(O)[C@@H](O)[C@@]4(O)[C@@H](C=C(C)[C@@H]4O)[C@@]1(O3)[C@H](C)[C@@H]2OCc1ccccc1	MTT	0.1093 µM
Cc1cc(=O)n(C)c(-c2ccc(C)o2)n1	-	950 µM
Cc1ccc(Sc2c(C(=O)NCCO)[nH]c3ccc(Cl)cc23)cc1	MTT	>100 µM
COc1ccc(S(=O)(=O)n2cc(/C=N/NC(=O)c3ccccc3)c3ccc(C)cc32)cc1	MTT	74.86 µg/mL
CC1(C)Oc2cc(O)c3c(=O)cc(-c4ccc(O)cc4)oc3c2C(O)C1O	MTT	387.1 µM
CCCCC/C(=N\NC(=O)c1ccccc1)c1cn(S(=O)(=O)c2ccccc2)c2ccccc12	MTT	>200 µg/mL
CC1=C[C@H]2[C@@]3(O)[C@H](C)[C@@H](OC(=O)CCc4ccccc4)[C@]4(O)[C@H]([C@@H]3C=C(CO)C[C@]2(O)C1=O)C4(C)C	MTT	>200 µM
C/C(=N\NC(=O)c1ccccc1)c1cn(S(=O)(=O)c2ccc(C)cc2)c2ccc(C#N)cc12	MTT	>200 µg/mL
CC(=O)O[C@@H]1C[C@@]2(C)C3CC=C4[C@@H](C[C@H](O)[C@@H](O)C4(C)C)[C@]3(C)C(=O)C[C@]2(C)C1C(C)(O)C(=O)/C=C/C(C)(C)OC(C)=O	MTT	232.5 µM
COC(OC)c1cc(=O)n(C)c(=O)n1C	-	1400 µM
CC/C=C\C/C=C\C/C=C\C/C=C\C/C=C\C/C=C\CCC(=O)O[C@@H]1[C@@H](C)[C@@]2(O)[C@@H](C=C(CO)C[C@]3(O)C(=O)C(C)=C[C@@H]23)[C@@H]2C(C)(C)[C@]12O	MTT	46.3 µM
C/C(=N\NC(=O)c1ccccc1)c1cn(S(=O)(=O)c2ccc(C)cc2)c2cc(C)ccc12	MTT	>200 µg/mL
Nc1nc(NC2CC2)c2ncn([C@H]3C=C[C@@H](CO)C3)c2n1	-	>30 µM
C/C=C(/C)C(=O)O[C@@]12[C@H](O)[C@@H](C)[C@@]3(O)[C@@H](C=C(CO)C[C@]4(O)C(=O)C(C)=C[C@@H]34)[C@@H]1C2(C)C	MTT	>200 µM
CC1=CC[C@@H]([C@@H](C)[C@H]2CC[C@@]3(C)C4=C(C(=O)C[C@]23C)[C@H]2O[C@]23C=CC(=O)OC(C)(C)[C@@H]3CC4)OC1=O	MTT	8.77 µg/mL
CC1(C)C=Cc2cc3ccc(=O)oc3cc2O1	MTT	732 µM
C=C(C)[C@@]12OC3(c4ccccc4)O[C@@H]1[C@@H]1[C@H](OC(C)=O)[C@@]4(C)O[C@@]5([C@@H]4OCc4ccccc4)[C@@H](OC(C)=O)[C@@H](C)C[C@H]5[C@@]1(O)[C@H](C)[C@@H]2O3	MTT	>0.2967 µM
C=C(C)[C@@H]1CC[C@]2(C(=O)O)CC[C@]3(C)[C@H](CC[C@@H]4[C@@]5(C)CCC(=O)C(C)(C)[C@@H]5CC[C@]43C)[C@@H]12	MTT	30.66 µM
C/C(=N\NC(=O)c1ccccc1)c1cn(S(=O)(=O)c2ccccc2)c2ccc(C#N)cc12	MTT	>200 µg/mL
C=C(C)OCC12O[C@@]3([C@@H]1OC(C)=O)[C@@H](OC(C)=O)[C@@H](C)C[C@H]3[C@]1(O)[C@H]([C@@H](OC(C)=O)[C@](OCc3ccccc3)(C(=C)C)[C@@H](OC(C)=O)[C@H]1C)[C@@H]2OC(C)=O	MTT	>0.2591 µM
CC1(C)C=Cc2c(ccc3ccc(=O)oc23)O1	MTT	329 µM
C=C(C)[C@@H]1CC[C@]2(CO)CC[C@]3(C)[C@H](CC[C@@H]4[C@@]5(C)CC[C@H](O)C(C)(C)[C@@H]5CC[C@]43C)[C@@H]12	MTT	316 µM
O=S(=O)(Oc1ccc(N=Nc2ccc(N=Nc3ccc(OS(=O)(=O)c4ccccc4)c4ncccc34)cc2)c2cccnc12)c1ccccc1	MTT	47.56 µg/mL
Cc1ccc(S(=O)(=O)c2c(C(=O)NNCCO)[nH]c3ccc(Cl)cc23)cc1	MTT	>100 µM
Oc1ccc(N=Nc2ccc(N=Nc3ccc(O)c4ncccc34)cc2)c2cccnc12	MTT	8.51 µg/mL
C=C(C)[C@@]1(O)[C@H](OC(C)=O)[C@@H]2[C@H](OCc3ccccc3)C3(C)O[C@@]4([C@@H]3OCc3ccccc3)[C@@H](OC(C)=O)[C@@H](C)C[C@H]4[C@@]2(O)[C@H](C)[C@@H]1OCc1ccccc1	MTT	>0.2512 µM
Cc1ccc(S(=O)(=O)Oc2ccc(N=Nc3ccc(N=Nc4ccc(OS(=O)(=O)c5ccc(C)cc5)c5ncccc45)cc3)c3cccnc23)cc1	MTT	83.66 µg/mL
Cc1ccccc1S(=O)(=O)c1c(C(=O)NNCCO)[nH]c2ccc(Cl)cc12	MTT	>100 µM
CC1=C[C@H]2[C@@]3(O)[C@H](C)[C@@H](O)[C@]4(OC(=O)CCCCCCCCN5CCN(C(=O)CC6(C)C(O)CCC7(C)C8CCC(=O)C8(C)CCC67)CC5)[C@H]([C@@H]3C=C(CO)C[C@]2(O)C1=O)C4(C)C	MTT	18.9 µM
C=C(C)[C@@H]1CC[C@@H]2[C@]3(CC[C@]4(C)[C@@H]([C@H](C)CC/C=C(/C)C(=O)O)CC[C@@]24C)C[C@]13CCC(=O)O	MTT	58.93 µg/mL
CC1=C[C@H]2[C@@]3(O)[C@H](C)[C@@H](OC(=O)/C=C/c4ccccc4)[C@]4(OC(=O)/C=C/c5ccccc5)[C@H]([C@@H]3C=C(COC(=O)/C=C/c3ccccc3)C[C@]2(O)C1=O)C4(C)C	MTT	>200 µM
O=C(O)c1cn(-c2ccccc2)c2ccc(Cc3cccc(Cl)c3F)c(O)c2c1=O	-	0.39 µM
CC(C)=CCC/C(C)=C/CC/C(C)=C/CC/C(C)=C/Cc1cc(O)cc2c1OC(=O)C2=C(C)C	MTT	68.69 µM
Cc1ccc(C(O)c2cc(=O)n(C)c(=O)n2C)o1	-	400 µM
COC(C)(C)/C=C/C[C@](C)(O)C1[C@H](O)C[C@@]2(C)[C@@H]3CC=C4[C@@H](C[C@H](O)[C@@H](O)C4(C)C)[C@]3(C)C(=O)C[C@]12C	MTT	559.9 µM
Cc1ccc(Sc2c(C(=O)NNCCO)[nH]c3ccc(Cl)cc23)cc1	MTT	>100 µM
COc1cc(C2OC[C@@H]3[C@@H](c4cc(OC)c(O)c(OC)c4)OC[C@H]23)cc(OC)c1O	MTT	346.9 µM
C/C(=N\NC(=O)c1ccccc1)c1cn(S(=O)(=O)c2ccc(C)cc2)c2ccc([N+](=O)[O-])cc12	MTT	>200 µg/mL
CC1(C)OC2=CC(=O)C3C(=O)C=C(c4ccc(O)cc4)OC3C2=C(O)C1O	MTT	136.6 µM
Cc1ccc2c(/C=N/NC(=O)c3ccccc3)cn(S(=O)(=O)c3ccc(Cl)cc3)c2c1	MTT	0.68 µg/mL
CC1(C)O[C@H]2CC(=O)OC[C@]23[C@H]2CC[C@@]4(C)[C@H](c5ccoc5)OC(=O)[C@H]5O[C@]54[C@]2(C)C(=O)C[C@@H]13	MTT	>340.4 µM
C=C(C)[C@@]12OC3(c4ccccc4)O[C@@H]1[C@@H]1[C@@H]4O[C@]4(C)[C@@H](O)[C@]4(O)C(=O)C(C)=C[C@H]4[C@@]1(O3)[C@H](C)[C@@H]2OCc1ccccc1	MTT	0.0233 µM

The last 5 rows once more:

smiles | read by | value
C/C(=N\NC(=O)c1ccccc1)c1cn(S(=O)(=O)c2ccc(C)cc2)c2ccc([N+](=O)[O-])cc12 | MTT | >200 µg/mL
CC1(C)OC2=CC(=O)C3C(=O)C=C(c4ccc(O)cc4)OC3C2=C(O)C1O | MTT | 136.6 µM
Cc1ccc2c(/C=N/NC(=O)c3ccccc3)cn(S(=O)(=O)c3ccc(Cl)cc3)c2c1 | MTT | 0.68 µg/mL
CC1(C)O[C@H]2CC(=O)OC[C@]23[C@H]2CC[C@@]4(C)[C@H](c5ccoc5)OC(=O)[C@H]5O[C@]54[C@]2(C)C(=O)C[C@@H]13 | MTT | >340.4 µM
C=C(C)[C@@]12OC3(c4ccccc4)O[C@@H]1[C@@H]1[C@@H]4O[C@]4(C)[C@@H](O)[C@]4(O)C(=O)C(C)=C[C@H]4[C@@]1(O3)[C@H](C)[C@@H]2OCc1ccccc1 | MTT | 0.0233 µM